Measurements reported in patent publication US11542288B2, “Antiviral compounds” (priority 2020, dated 2023).

Experiments:
[1] = test system: SP cells (chronically infected with HTLV-1); assay: SP cell Gag processing (HTLV-1 maturation) immunoblot; type: cell-based; settings: SP cell lysates and supernatants, 50 μM or 100 μM
[2] = target: HTLV-1 protease (Human T-cell leukemia virus type I, UniProt Q82134, L40I); settings: 1:1 ratio inhibitor to protease (1 μM), 60 min, 37° C.

## CCC(CC)CN(C[C@@H](O)[C@H](Cc1ccccc1)NC(=O)O[C@H]1CO[C@H]2OCC[C@H]21)S(=O)(=O)c1ccc(N)cc1
[1]
  amount of full-length (FL) Gag and larger size cleavage intermediates (CI): increased
[2]
  inhibition of Gag cleavage and VLP maturation: effectively inhibited Gag cleavage and VLP maturation
